Measured values from several laboratories, pooled; numbers as filed in NIAID ChemDB.

Common to all: cytotoxicity tests; cells: Vero cells; read-out: CC50

Rows are shuffled and stem from different studies.

{"structure": "CC(C)(C)NC(=O)CN(C(=O)[C@H]1CC[C@@]2(C)C3CC=C4C[C@@H](O)CC[C@]4(C)C3CC[C@]12C)c1ccccc1Cl", "read by": "crystal violet", "result": "136.8 µM"}
{"structure": "CN(C)c1cc2nc(C3CCCCC3)[nH]c2cc1NC(=O)c1ccc(OC(F)(F)F)c(F)c1F", "result": ">200 µg/mL"}
{"structure": "CC(=O)Nn1cnc2c(Nc3ccccc3)ncnc2c1=N", "result": "44.91 µg/mL"}
{"structure": "COc1ccc(Cn2cnc3c(-c4ccco4)nc(Cl)cc32)cc1", "result": ">128 µM"}
{"structure": "COc1cc2c(cc1C1CC(=O)c3cc(OC)c(OC)c(OC)c31)C1CC[C@@]3(C)C(CCC[C@@H]3OC(C)=O)C1CC2", "read by": "neutral red", "result": "55.37 µM"}
{"structure": "O=c1oc(/C=C/C(F)(F)F)ns1", "read by": "ATP", "result": "21 µM"}
{"structure": "COc1cc2c(cc1/C=C/C(=O)c1ccc(OC)c(OC)c1)C1CC[C@@]3(C)C(CC[C@@H]3O)C1CC2", "read by": "neutral red", "result": "21.22 µM"}
{"structure": "Cc1cc(C)c2sc(NN3CCCC3)nc2c1", "read by": "luminescence", "result": ">40 µg/mL"}
{"structure": "CC(C)[C@H]1CC[C@H]2[C@@H]3C=C[C@](C)(O)CC[C@]3(C)CC[C@]12C(=O)O", "read by": "fluorescence", "result": ">624 µM"}
{"structure": "COc1ccc(Nc2ncnc3c(=N)n(NC(=O)c4ccco4)cnc23)cc1", "result": "3.56 µg/mL"}
{"structure": "O=c1oc(/C=C/c2ccc(OC(F)(F)F)cc2)ns1", "read by": "ATP", "result": "20 µM"}
{"structure": "COc1cc2c(cc1/C=C/C(=O)c1ccc3c(c1)OCO3)C1CC[C@@]3(C)C(CC[C@@H]3O)C1CC2", "read by": "neutral red", "result": "65.04 µM"}
{"structure": "O=C(Nc1nnc(-c2ccccc2Cl)o1)c1cccc(O)c1", "read by": "luminescence", "result": ">40 µg/mL"}
{"structure": "COc1ccc(Cn2cnc3c(-c4ccco4)nccc32)cc1", "result": ">128 µM"}
{"structure": "N=c1c2ncnc(Nc3ccc(F)cc3)c2ncn1NC(=O)c1ccncc1", "result": "0.91 µg/mL"}
{"structure": "O=C(c1ccccc1)c1nsc(=O)o1", "read by": "ATP", "result": "19 µM"}
{"structure": "CC(C)[C@H]1CC[C@H]2[C@@H]3C=C[C@](C)(O)CC[C@]3(C)CC[C@]12CO", "read by": "fluorescence", "result": ">652.8 µM"}
{"structure": "COc1ccc(N(CC(=O)NC(C)(C)C)C(=O)[C@H]2CC[C@@]3(C)C4CC=C5C[C@@H](O)CC[C@]5(C)C4CC[C@]23C)cc1", "read by": "crystal violet", "result": "154.4 µM"}
{"structure": "CC(C)[C@H]1CC[C@H]2[C@@H]3C=C[C@]4(C)CC[C@@]3(CC[C@]12CO)CO4", "read by": "fluorescence", "result": ">656 µM"}
{"structure": "Cc1ccc(/C=C/c2nsc(=O)o2)cc1", "read by": "ATP", "result": "21 µM"}
{"structure": "N#Cc1ccc(Nc2ncnc3c(=N)n(NC(=O)c4ccccc4)cnc23)cc1", "result": "2.47 µg/mL"}
{"structure": "CC1=CC[C@]2(C)CC[C@]3(CO)[C@@H](C(C)C)CC[C@H]3[C@@H]2C=C1", "read by": "fluorescence", "result": "42.2 µM"}

The last 3 rows once more:

structure,read by,result
Cc1ccc(/C=C/c2nsc(=O)o2)cc1,ATP,21 µM
N#Cc1ccc(Nc2ncnc3c(=N)n(NC(=O)c4ccccc4)cnc23)cc1,,2.47 µg/mL
CC1=CC[C@]2(C)CC[C@]3(CO)[C@@H](C(C)C)CC[C@H]3[C@@H]2C=C1,fluorescence,42.2 µM

CCn is the concentration with n% toxicity to the cells. Blank or dashed fields: not listed here.